Laboratory results reported in publication PMC4944999 (PLoS ONE, 2016).

Molecular target: PeB^GF-Lys, double substituted variant (D6G, Y11F) of PeB-Lys (mouse)
Experiment: SPR

Substance: hemagglutinin (HA) of influenza A/Aichi/2/68 H3N2 X31, on virus particles (natural protein)
- fold amount of hemagglutinin bound compared to PeB: 2 fold
